The results in this text go back to patent US9988424 (DUKE UNIVERSITY, dated 2018).

Where only a bound is given, the exact number is not on record here.

In one experiment the target is Env of SHIV SF162P3 (SHIV). In words: cell-based or functional assay.
For a further experiment, the target named is Env of SHIV-BaL (SHIV). Description: cell-based or functional assay.
A further experiment addresses J08 A.92RW020V1V2 (HIV-1). Description: SPR, mAb captured on anti-Fc. Background: SPR reads the build-up and loss of mass on a sensor chip optically.
Another experiment concerns the target T1, J08 B.HXB2/BALV1V2 (HIV-1).
T1 construct: also called J08 B.HXB/BAL V1V2
T1 chain: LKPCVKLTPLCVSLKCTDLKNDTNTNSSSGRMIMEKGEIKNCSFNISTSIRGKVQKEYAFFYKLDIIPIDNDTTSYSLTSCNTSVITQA
In words: SPR, mAb captured on anti-Fc.

Another experiment has as its target T2, AE.con gp140CF.
T2 construct: also called AE.con.env03 gp140CF
T2 chain: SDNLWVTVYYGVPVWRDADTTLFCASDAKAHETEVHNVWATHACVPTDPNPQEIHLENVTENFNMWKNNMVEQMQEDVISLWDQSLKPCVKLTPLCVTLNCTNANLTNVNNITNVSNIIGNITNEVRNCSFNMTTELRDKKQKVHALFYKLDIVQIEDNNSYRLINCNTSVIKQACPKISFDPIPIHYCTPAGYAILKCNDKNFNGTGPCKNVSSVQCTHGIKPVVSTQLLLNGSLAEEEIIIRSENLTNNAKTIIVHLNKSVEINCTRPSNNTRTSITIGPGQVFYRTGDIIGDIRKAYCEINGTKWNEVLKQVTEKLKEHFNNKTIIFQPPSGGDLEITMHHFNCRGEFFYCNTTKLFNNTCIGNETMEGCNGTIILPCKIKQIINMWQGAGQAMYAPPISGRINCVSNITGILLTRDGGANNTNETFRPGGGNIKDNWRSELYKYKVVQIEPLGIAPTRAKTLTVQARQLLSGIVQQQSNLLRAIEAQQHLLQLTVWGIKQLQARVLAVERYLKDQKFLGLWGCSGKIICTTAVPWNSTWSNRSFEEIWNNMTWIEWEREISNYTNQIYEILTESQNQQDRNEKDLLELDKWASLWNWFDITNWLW
In words: ELISA, OD405 at 10 ug/ml mAb. Background: ELISA stands for enzyme-linked immunosorbent assay.

Another experiment has as its target T3, B.Case A2 V1/V2 Tags.
T3 Env construct: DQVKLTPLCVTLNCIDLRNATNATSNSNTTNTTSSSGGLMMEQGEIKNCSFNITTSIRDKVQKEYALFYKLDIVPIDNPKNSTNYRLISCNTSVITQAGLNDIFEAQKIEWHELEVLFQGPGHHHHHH
Description: ELISA, OD405 at 10 ug/ml mAb.

A further experiment deals with T4, G.con 140CF.
T4 construct: also called G.con gp140CF; G.con.env03 gp140CF
T4 chain: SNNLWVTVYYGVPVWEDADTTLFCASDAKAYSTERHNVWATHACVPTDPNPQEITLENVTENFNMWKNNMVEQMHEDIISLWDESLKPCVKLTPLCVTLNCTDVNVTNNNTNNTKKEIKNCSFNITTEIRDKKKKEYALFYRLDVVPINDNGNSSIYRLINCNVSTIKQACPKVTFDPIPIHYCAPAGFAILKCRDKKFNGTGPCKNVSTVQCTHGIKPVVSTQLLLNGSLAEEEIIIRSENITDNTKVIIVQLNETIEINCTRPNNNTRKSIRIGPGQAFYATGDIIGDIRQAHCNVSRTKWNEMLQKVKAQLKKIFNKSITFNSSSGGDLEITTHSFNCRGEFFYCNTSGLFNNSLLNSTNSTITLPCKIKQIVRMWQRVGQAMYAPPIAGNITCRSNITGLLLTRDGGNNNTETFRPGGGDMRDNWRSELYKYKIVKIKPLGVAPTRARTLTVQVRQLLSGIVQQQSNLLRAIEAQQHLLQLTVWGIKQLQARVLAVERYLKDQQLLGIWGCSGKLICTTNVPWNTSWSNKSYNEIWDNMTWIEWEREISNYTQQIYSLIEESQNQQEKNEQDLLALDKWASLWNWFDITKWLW
In words: ELISA OD405nm, bar chart, antibody concentration not given.

Another experiment has as its target T5, B.con env03 140CF.
T5 construct: also called B.con gp140CF
Described as above.

The target in the next experiment is T6, AE.con env03 40CF.
T6 construct: also called AE.con gp140CF; AE.con.env03 gp140CF
T6 chain: T2 chain
The description is as above.

In the next experiment the target is B.040 gp140C. Described as above.
Another experiment has as its target T7, J08 C.97ZA012V1V2 (HIV-1).
T7 chain: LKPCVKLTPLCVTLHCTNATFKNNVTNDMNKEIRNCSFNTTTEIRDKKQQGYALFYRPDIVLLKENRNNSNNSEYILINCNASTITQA
The description is as above.

In another experiment the target is B.9021 gp140C (HIV-1). The description is as above.
For a further experiment, the target named is T8, SIV CPZ US-1 gp140CF (SIVcpz).
T8 construct: also called US-1 SIVCPZ gp140CF
T8 chain: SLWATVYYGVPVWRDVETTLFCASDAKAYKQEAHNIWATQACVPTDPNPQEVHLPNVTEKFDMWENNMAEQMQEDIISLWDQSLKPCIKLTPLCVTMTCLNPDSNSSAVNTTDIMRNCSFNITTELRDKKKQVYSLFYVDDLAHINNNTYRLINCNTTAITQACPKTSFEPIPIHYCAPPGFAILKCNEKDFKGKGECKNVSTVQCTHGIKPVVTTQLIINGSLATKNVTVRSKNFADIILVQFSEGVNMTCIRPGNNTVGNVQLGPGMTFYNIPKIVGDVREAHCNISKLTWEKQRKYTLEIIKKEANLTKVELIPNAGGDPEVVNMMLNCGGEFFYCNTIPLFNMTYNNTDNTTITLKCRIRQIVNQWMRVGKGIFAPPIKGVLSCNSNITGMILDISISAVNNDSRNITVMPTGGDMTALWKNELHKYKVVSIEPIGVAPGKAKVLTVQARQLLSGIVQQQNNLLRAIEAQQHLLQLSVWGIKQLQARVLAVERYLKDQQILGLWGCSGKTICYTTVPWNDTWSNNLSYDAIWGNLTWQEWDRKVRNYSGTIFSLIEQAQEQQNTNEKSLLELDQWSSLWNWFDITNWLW
Described as above.

B1: CH58 (antibody, V domains shown)
VH: EVQLVQSGAEVKKPGESLKISCKGSGYRFTSYWIVWVRQMPGKGLEWMGIIYPGDFDTKYSPSFQGQVTISADKSISTAYLQWSSLKASDTAMYYCARLGGRYYHDSSGYYYLDYWGQGTLVTVSS
VL: NFMLTQPHSVSESPGKTVTISCTRSSGSVASDYVQWYQQRPGSAPTTVVYEDNQRPSGVPDRFSGSIDSSSNSASLTISGLKTEDEADYYCQSYDNSSWVFGGGTKLTVL
As for B1, the “EC50, neutralization of SHIV B.SF162P3 (tier 2)” value with Env of SHIV SF162P3 is > 50 µg/mL. Also, in the experiment with Env of SHIV-BaL, the “EC50, neutralization of SHIV B.BaL (tier 2)” value is > 50 µg/mL. The Kd (as a rule, a measure of binding affinity in units of concentration) with J08 A.92RW020V1V2 came to 117 nM; in the experiment with J08 B.HXB2/BALV1V2, 323 nM. Besides, the binding result with AE.con gp140CF is listed as “binds”; with B.Case A2 V1/V2 Tags it was “binds”; with G.con 140CF, “no binding (tested: not given)”; with B.con env03 140CF, “no binding (tested: not given)”; in the experiment with AE.con env03 40CF it was “binds”; with B.040 gp140C, “no binding (tested: not given)”. Besides, the binding result in the experiment with J08 C.97ZA012V1V2, in the experiment with B.9021 gp140C and with SIV CPZ US-1 gp140CF was “no binding (tested: not given)” each time.
